Common to all, as to conditions: rate of corrosion from weight loss after 42 hours; test material 20 ppm, pH 8.5, 40° C., 15 ppm magnesium hardness, aerated, 150 rpm
The nature of series [1]: Anticorrosive effect test, carbon steel.
The nature of series [2]: Anticorrosive effect test, copper.
Series [3] in a line: Anticorrosive effect test, tinning steel plate.
Series [4] is described as follows: Anticorrosive effect test, cast iron.

Each structure is given as a SMILES string.

As for `CCCCCCCCCCCCCC[N+]1(Cc2ccccc2)CCOCC1.Cl.N.[Cl-]` [B, 4-benzyl-4-tetradecyl morpholinium ammonium chloride], in series [1], the “Anticorrosive effect (mpy) carbon steel” value is 6.8 mpy. Also, in series [2], the “Anticorrosive effect (mpy) copper” value is 0.4 mpy. For the same molecule, in series [3], the “Anticorrosive effect (mpy) tinning steel” value turned out to be 0.7 mpy. The “Anticorrosive effect (mpy) cast iron” value in series [4] came out at 7.1 mpy.
Turning to `O=P([O-])(O)O.[Na+]` [D, sodium dihydrogen phosphate (NaH2PO4.12H2O)], the “Anticorrosive effect (mpy) carbon steel” value in series [1] is recorded as 18.7 mpy. Also, the “Anticorrosive effect (mpy) copper” value in series [2] was 0.1 mpy. Further, the “Anticorrosive effect (mpy) tinning steel” value in series [3] turned out to be 0.3 mpy. The “Anticorrosive effect (mpy) cast iron” value in series [4] is given as 13.9 mpy.
For the molecule `CCCCCCCCCCCCCCCC[N+](C)(C)CCO.CCCCCCCCCCCCCCCC[N+](C)(C)CCO.CCCCCCCCCCCCCCCC[N+](C)(C)CCO.O=P([O-])([O-])[O-]` [E, N-dimethyl-N-cetyl-N-hydroxyethyl ammonium phosphate], in series [1], the “Anticorrosive effect (mpy) carbon steel” value is listed as 7.6 mpy. Besides, the “Anticorrosive effect (mpy) copper” value in series [2] was determined as 0.2 mpy. The “Anticorrosive effect (mpy) tinning steel” value in series [3] worked out at 0.3 mpy. Also, the “Anticorrosive effect (mpy) cast iron” value in series [4] amounted to 5.1 mpy.
For `CCCCCCCCCCCCCC[N+]1(Cc2ccccc2)CCOCC1.N.O=P([O-])(O)O` [example 4, 4-benzyl-4-tetradecyl morpholinium ammonium phosphate], the “Anticorrosive effect (mpy) carbon steel” value in series [1] stood at 5.1 mpy. In series [2], the “Anticorrosive effect (mpy) copper” value amounted to 0.1 mpy. Moreover, the “Anticorrosive effect (mpy) tinning steel” value in series [3] is reported as 0.1 mpy. Besides, the “Anticorrosive effect (mpy) cast iron” value in series [4] is 0.8 mpy.

The values above are taken from patent publication US6399827B1, “Quaternary ammonium phosphate compound and method of preparing same” (SK Chemicals, priority 1997, dated 2002).
